PubChem BioAssay AID624099, ICCB-Longwood – 2012
Here is an unselected part of about 21,000 deposited reagents. 497 of all reagents (2.4%) were called active. 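Higher z means weaker E2 silencing; only reporter increases were scored, and knock-downs that hurt cell survival may mask genuine repressor factors.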

Assay: 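Human genes that papillomavirus E2 requires to repress the HPV18 LCR promoter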 (primary screen)
Cell system: human C33A cervical carcinoma cells (HPV-negative) stably expressing BPV1 E2 and an HPV18 LCR luciferase reporter
Knock-down reagent: siRNA pool against human genes, 40 nM
Timing: 72 h
Detection: 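Per-well luciferase luminescence, z-scored on each plate against the plate mean and SD with control wells left out, then averaged across three replicate plates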
Reading the numbers: mean z-score and z-score: higher = stronger reporter signal, weaker E2 silencing
Call rule: 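Hit if mean z-score reaches 2 and two or more of three replicate z-scores also reach 2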

gene knocked down	mean z-score	z-score, replicate A	z-score, replicate B	z-score, replicate C	Call
COA4	-0.89	-0.35	-1.26	-1.05	inactive
LAPTM5	0.78	0.88	0.9	0.54	inactive
ALDH1B1	-1.37	-1.48	-0.99	-1.63	inactive
C6orf52	-0.05	0	-0.26	0.12	inactive
TOX	-1.41	-1.46	-1.16	-1.61	inactive
ACSL3	1.48	1.05	1.69	1.69	inactive
UBD	-0.51	-0.2	-0.61	-0.72	inactive
PEX5L	0.7	0.99	0.37	0.73	inactive
MAGI3	0.93	0.98	0.92	0.88	inactive
CRIP3	0.23	0.38	0.11	0.19	inactive
HADHB	-1.39	-1.39	-1.52	-1.26	inactive
DOP1B	-1.51	-1.26	-1.84	-1.42	inactive
ATP6V0D2	-0.66	-0.86	-0.65	-0.48	inactive
ZNF676	0.98	0.75	0.89	1.32	inactive

The list goes on (2 carried over from the part before).
gene knocked down	mean z-score	z-score, replicate A	z-score, replicate B	z-score, replicate C	Call
ATP6V0D2	-0.66	-0.86	-0.65	-0.48	inactive
ZNF676	0.98	0.75	0.89	1.32	inactive
MRPL1	0.63	0.65	0.53	0.72	inactive
LOC402098 (retired record)	-1.28	-1.1	-1.58	-1.17	inactive
ZNF441	2.18	2.64	2.09	1.8	active
ZNF19	-0.43	-0.34	-0.36	-0.6	inactive
PSMD2	-1.99	-2.03	-1.97	-1.98	inactive
SNRNP25	-0.67	-0.54	-0.72	-0.77	inactive
ANKRA2	1.61	1.69	1.85	1.28	inactive
LOC392487 (retired record)	0.36	0.2	0.44	0.44	inactive
IFT122	1.33	1.58	1.39	1.02	inactive
